Tested on: CHIKV
Type: cell-based, chikungunya virus
Conditions: WST-1 IC50 divided by CHIKV IC50; NT = non-toxic

Compound | Therapeutic index
C=CC/C=C\C/C=C\CCCCCCCc1cccc(O)c1C(=O)O [(15:3)-Anacardic acid] | 4.65
CCCCn1c2cc(OC)c(Cl)cc2c2ccnc(C)c21 [AnnH14, 9-butyl-6-chloro-7-methoxy-1-methyl-9H-pyrido[3,4-b]indole] | 6.79
COc1ccc2c(c1)[nH]c1c(/C=C/c3ccccc3)nccc12 [AnnH18, (E)-7-methoxy-1-(2-phenylethen-1-yl)-9H-pyrido[3,4-b]indole] | 9.04
C/C=C/C/C=C/CCC(=O)[C@H]1O[C@H]1C(N)=O [Cerulenin] | 2.53
CCOC(=O)C1=C(C)NC(C)=C(C(=O)OC)C1c1cccc(Cl)c1Cl (stereo not drawn) [Felodipine] | 3.73
CCCCCCCCCCC[C@@H](C[C@@H]1OC(=O)[C@H]1CCCCCC)OC(=O)[C@H](CC(C)C)NC=O [Orlistat] | 10.57
OCCN1CCN(CCCN2c3ccccc3Sc3ccc(Cl)cc32)CC1 [Perphenazine] | 38.28
O=c1[nH]c2ccccc2n1C1CCN(CCCC(c2ccc(F)cc2)c2ccc(F)cc2)CC1 [Pimozide] | 69.75
CC(Cc1ccccc1)NCCC(c1ccccc1)c1ccccc1 (stereo not drawn) [Prenylamine] | 6.91
CNC(=O)c1cc(Oc2ccc(NC(=O)Nc3ccc(Cl)c(C(F)(F)F)c3)cc2)ccn1 [Sorafenib] | 16.42
COc1cc(N2CCC(N3CCN(C)CC3)CC2)ccc1Nc1ncc(Cl)c(Nc2ccccc2S(=O)(=O)C(C)C)n1 [TAE684] | 14.28
KH-CB19 | 3.26
